Results deposited as PubChem BioAssay AID504761 (Drosophila RNAi Screening Center, 2011)

Purpose: 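Fly genes whose silencing reduces dengue virus type 2 infection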 (primary screen)
Cells: D.Mel-2 cells from Drosophila
Knock-down reagent: long dsRNA against Drosophila genes
Treatment: infection with dengue virus type 2; dose and infection time not stated
Read-out: 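Per well on two replicate plates, imaging gave the percent of cells positive for viral envelope protein, ranked by infection, and a nuclear count of cells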
Scale: infection score: higher = more virus-infected cells; cell count: higher = more cells in the well
Active means: 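Very low infection ranking in both replicate wells (chance probability at most 0.065), then a retest showing infection dropped 1.5-fold or more at p below 0.05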
Meaning of the calls: active = confirmed: knock-down lowers infection; inactive = not picked or not confirmed
The screen tested about 22,000 reagents; shown is a random part of those that have a named target and a result. Of all reagents, 116 (0.52%) were called active. 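Calls depend on retest data that are not deposited; infection was ranked per plate without normalising between plates; the unit of the infection score is not given.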 Raw values vary from plate to plate and are shown uncorrected. Entries without a mark were called inactive. A plus sign joins genes that one reagent is predicted to hit. Not all columns of the deposit are shown. Not given: the amount of reagent, the time to read-out.

Gene,DRSC id,"infection score, replicate 1","infection score, replicate 2","cell count, replicate 1"
CG13801,DRSC08335,1.11,5.96,6846
CG34051,DRSC01739,20.5,23.4,4512
Ptr,DRSC04852,4.1,8.61,6444
Ptr,DRSC21517,2.81,5.18,5977
CG32053,DRSC10683,7.39,7.64,6685
twr,DRSC12491,8.14,11,1647
Ns1,DRSC15529,3.46,6.68,5640
Myd88,DRSC06815,13.8,15.2,5711
Myd88,DRSC28830,6.67,20,1199
Cyp303a1,DRSC03300,11.7,15.4,3182
CG5112,DRSC15718,3.44,2.8,6272
zen,DRSC12632,0.65,6.99,6620
zen,DRSC23673,2.08,2.4,6206
CG33155 + mRpL53,DRSC05461,3.5,4.56,6023
CG33155 + mRpL53,DRSC29467,34.6,,4233
pxb,DRSC13110,7.49,3.61,5650
pxb,DRSC14996,5.74,15.9,4805
pxb,DRSC14997,6.81,4.91,6215
pxb,DRSC22225,0.49 (active),0.66,6970
pxb,DRSC25214,2.22,3.75,6403
CG17707,DRSC20650,9.43,2.27,5852
Vha100-1,DRSC14148,1.83,2.72,5472
Vha100-1,DRSC26617,2.37,3.26,5792

Entries listed so far with an active call (1):
Gene,DRSC id,"infection score, replicate 1","infection score, replicate 2","cell count, replicate 1"
pxb,DRSC22225,0.49 (active),0.66,6970
